Measured values from several laboratories, pooled; numbers as filed in NIAID ChemDB.

All rows: whole-cell or culture tests; organism: Mycobacterium avium intracellulare; read-out: MIC

Lines come from different laboratories, so protocols vary.

smiles | strain or isolate | value
NC(=S)N=Nc1c(S)n(-c2ccccc2)c2ccccc12 | CNCTC D39/93 | 125 µM
CO[C@H]1/C=C/O[C@@]2(C)Oc3c(C)c(O)c4c(O)c(c(/C=N/N5CCN(C6CCCC6)CC5)c(O)c4c3C2=O)NC(=O)/C(C)=C\C=C\[C@H](C)[C@H](O)[C@@H](C)[C@@H](O)[C@@H](C)[C@H](OC(C)=O)[C@@H]1C | 16-Feb | 0.25 µg/mL
CO[C@H]1/C=C/O[C@@]2(C)Oc3c(C)c(O)c4c(O)c(c5c(c4c3C2=O)NC2(CCN(CC(C)C)CC2)N=5)=NC(=O)/C(C)=C\C=C\[C@H](C)[C@H](O)[C@@H](C)[C@@H](O)[C@@H](C)[C@H](OC(C)=O)[C@@H]1C | CIPT 140310001 | 0.25 µg/mL
CC[C@H]1OC(=O)[C@H](C)[C@@H](OC2C[C@@](C)(OC)[C@@H](O)[C@H](C)O2)[C@H](C)[C@@H](O[C@@H]2O[C@H](C)C[C@H](N(C)C)[C@H]2O)C(C)(OC)C[C@@H](C)/C(=N\OCCCOc2ccccc2)[C@H](C)[C@@H](O)[C@]1(C)O | 20066 (clarithromycin-susceptible) | 3.13 µg/mL
CN(C)CCCN1c2ccccc2Sc2ccc(Cl)cc21 | R 8588 | 25 µg/mL
O=C1C(=S)N(c2ccccc2)c2ccccc21 | CNCTC D39/93 | 63 µM
CC[C@H]1OC(=O)[C@H](C)[C@@H](OC(=O)CCCc2ccccc2)[C@H](C)[C@@H](O[C@@H]2O[C@H](C)C[C@H](N(C)C)[C@H]2O)C(C)(O)C[C@@H](C)/C(=N\OCCCOc2ccccc2)[C@H](C)[C@@H](O)[C@]1(C)O | 20066 (clarithromycin-susceptible) | 12.5 µg/mL
CCOC(=O)C(=O)N=Nc1c(S)n(CC)c2ccccc12 | CNCTC D39/93 | 500 µM
CC[C@H]1OC(=O)[C@H](C)[C@@H](O[C@H]2C[C@@](C)(OC)[C@@H](O)[C@H](C)O2)[C@H](C)[C@@H](O[C@@H]2O[C@H](C)C[C@H](N(C)C)[C@H]2O)[C@](C)(O)C[C@@H](C)/C(=N\OC)[C@H](C)[C@@H](O)[C@]1(C)O | 20066 (clarithromycin-susceptible) | 12.5 µg/mL
CC1(C)S[C@@H]2[C@H](NC(=O)C(C(=O)O)c3ccccc3)C(=O)N2[C@H]1C(=O)O | CIPT 140310054 | 75 µg/mL
CC[C@H]1OC(=O)[C@H](C)[C@@H](O)[C@H](C)[C@@H](O[C@@H]2O[C@H](C)C[C@H](N(C)C)[C@H]2O)C(C)(O)C[C@@H](C)/C(=N\OCCCOc2ccccc2)[C@H](C)[C@@H](O)[C@]1(C)O | 20066 (clarithromycin-susceptible) | >50 µg/mL
C[C@@H]1CN(c2c(F)c(N)c3c(=O)c(C(=O)O)cn(C4CC4)c3c2F)C[C@H](C)N1 | N-897 (HIV-) | 4 µg/mL
C#CCNC(=O)O[C@H]1C(O[C@@H]2[C@@H](C)[C@H](O[C@H]3C[C@@](C)(OC)[C@@H](OC(C)=O)[C@H](C)O3)[C@@H](C)C(=O)O[C@H](CC)[C@@](C)(O)[C@H](O)[C@@H](C)/C(=N/OCCCC3CCCCC3)[C@H](C)CC2(C)O)O[C@H](C)C[C@@H]1N(C)C | 20075 | 0.2 µg/mL
COc1ccc2c(c1)N(C[C@H](C)CN(C)C)c1ccccc1S2 | R 8588 | 50 µg/mL
CO[C@H]1/C=C/O[C@@]2(C)Oc3c(C)c(O)c4c(=O)c(c5oc6cc(N7CCN(CC(C)C)CC7)cc(=O)c6nc5c4c3=C2O)NC(=O)/C(C)=C\C=C\[C@H](C)[C@H](O)[C@@H](C)[C@@H](O)[C@@H](C)[C@H](OC(C)=O)[C@@H]1C | N-475 (HIV-) | 0.016 µg/mL
Clc1ccc2c(c1)nc1cc(Nc3ccccc3)c(=NC3CCCCC3)cc-1n2-c1ccccc1 | 99241 | 2 µg/mL
CC[C@H]1OC(=O)[C@H](C)[C@@H](O[C@H]2C[C@@](C)(OC)[C@@H](OC(C)=O)[C@H](C)O2)[C@H](C)[C@@H](OC2O[C@H](C)C[C@H](N(C)C)[C@H]2OC(=O)NC)C(C)(O)C[C@@H](C)/C(=N\OCCCC2CCCCC2)[C@H](C)[C@@H](O)[C@]1(C)O | 20066 | 3.13 µg/mL
OCCN1CCN(CC/C=C2/c3ccccc3Sc3ccc(Cl)cc32)CC1 | ATCC 23432 | 12.5 µg/mL
CC[C@H]1OC(=O)[C@H](C)[C@@H](O[C@H]2C[C@@](C)(OC)[C@@H](OC(C)=O)[C@H](C)O2)[C@H](C)[C@@H](O[C@@H]2O[C@H](C)C[C@H](N(C)C)[C@H]2O)C(C)(O)C[C@@H](C)/C(=N\OCCCOc2ccccc2)[C@H](C)[C@@H](O)[C@]1(C)O | 20066 (clarithromycin-susceptible) | 0.78 µg/mL
CC(=O)NC[C@H]1CN(c2ccc(N3CCN(c4ccc([N+](=O)[O-])s4)CC3)c(F)c2)C(=O)O1 | 19/97 | 0.25 µg/mL
CC[C@H]1OC(=O)[C@H](C)[C@@H](O[C@H]2C[C@@](C)(OC)[C@@H](OC(C)=O)[C@H](C)O2)[C@H](C)[C@@H](OC2O[C@H](C)C[C@H](N(C)C)[C@H]2OC(=O)NCC(=O)NC)C(C)(O)C[C@@H](C)/C(=N\OCCCC2CCCCC2)[C@H](C)[C@@H](O)[C@]1(C)O | 20073 | 1.56 µg/mL
NNC(=O)c1ccncc1 | N-499 (HIV-) | 2 µg/mL
Cc1onc(-c2ccccc2Cl)c1C(=O)N[C@@H]1C(=O)N2[C@@H]1SC(C)(C)[C@@H]2C(=O)O | CIPT 140310019 | >100 µg/mL
CC[C@H]1OC(=O)[C@H](C)[C@@H](O[C@H]2C[C@@](C)(OC)[C@@H](O)[C@H](C)O2)[C@H](C)[C@@H](O[C@@H]2O[C@H](C)C[C@H](N(C)C)[C@H]2O)[C@](C)(OC)C[C@@H](C)C(=O)[C@H](C)[C@@H](O)[C@]1(C)O | N-752 (HIV-) | 0.125 µg/mL
CN1C(=S)C(=O)c2ccccc21 | CNCTC D39/93 | 32 µM
OCCN1CCN(CCC=C2c3ccccc3Sc3ccc(Cl)cc32)CC1 | R 7313 | 25 µg/mL
CC[C@H]1OC(=O)[C@H](C)[C@@H](O[C@H]2C[C@@](C)(OC)[C@@H](OC(C)=O)[C@H](C)O2)[C@H](C)[C@@H](OC2O[C@H](C)C[C@H](N(C)C)[C@H]2OC(N)=O)C(C)(O)C[C@@H](C)/C(=N\OCCCC2CCCCC2)[C@H](C)[C@@H](O)[C@]1(C)O | 20075 | 3.13 µg/mL
C[C@@H](O)[C@H]1C(=O)N2C(C(=O)O)=C(SCCN=CN)C[C@H]12 | CIPT 140310031 | 2 µg/mL
CC[C@H]1OC(=O)[C@H](C)[C@@H](O[C@H]2C[C@@](C)(OC)[C@@H](OC(C)=O)[C@H](C)O2)[C@H](C)[C@@H](O[C@@H]2O[C@H](C)C[C@H](N(C)C)[C@H]2O)C(C)(O)C[C@@H](C)/C(=N\OCCOc2ccccc2)[C@H](C)[C@@H](O)[C@]1(C)O | 20066 (clarithromycin-susceptible) | 1.56 µg/mL
CCCCCCCCNC(=O)O[C@H]1C(O[C@@H]2[C@@H](C)[C@H](O[C@H]3C[C@@](C)(OC)[C@@H](OC(C)=O)[C@H](C)O3)[C@@H](C)C(=O)O[C@H](CC)[C@@](C)(O)[C@H](O)[C@@H](C)/C(=N/OCCCC3CCCCC3)[C@H](C)CC2(C)O)O[C@H](C)C[C@@H]1N(C)C | 20066 | 0.2 µg/mL

The last 3 rows once more:

C[C@@H](O)[C@H]1C(=O)N2C(C(=O)O)=C(SCCN=CN)C[C@H]12 ; strain or isolate: CIPT 140310031 ; value: 2 µg/mL
CC[C@H]1OC(=O)[C@H](C)[C@@H](O[C@H]2C[C@@](C)(OC)[C@@H](OC(C)=O)[C@H](C)O2)[C@H](C)[C@@H](O[C@@H]2O[C@H](C)C[C@H](N(C)C)[C@H]2O)C(C)(O)C[C@@H](C)/C(=N\OCCOc2ccccc2)[C@H](C)[C@@H](O)[C@]1(C)O ; strain or isolate: 20066 (clarithromycin-susceptible) ; value: 1.56 µg/mL
CCCCCCCCNC(=O)O[C@H]1C(O[C@@H]2[C@@H](C)[C@H](O[C@H]3C[C@@](C)(OC)[C@@H](OC(C)=O)[C@H](C)O3)[C@@H](C)C(=O)O[C@H](CC)[C@@](C)(O)[C@H](O)[C@@H](C)/C(=N/OCCCC3CCCCC3)[C@H](C)CC2(C)O)O[C@H](C)C[C@@H]1N(C)C ; strain or isolate: 20066 ; value: 0.2 µg/mL